Data published in publication PMC12077194, “Structural basis for spermidine recognition and modulation of Acinetobacter baumannii multidrug efflux regulator AmvR” (mBio, 2025).

What was measured:
[1] = system: AmvR (Acinetobacter baumannii); test: competition with a labelled probe; conditions: unlabeled DNA 1 abolished the shift of FAM_DNA 1; EMSA: 100 mM HEPES-Na pH 8.0, 100 mM KCl, 50 mM MgCl2, 5% glycerol, 10 mM DTT, 10 mM EDTA, 0.1 mg/mL BSA, 30 min, room temperature; recombinant protein; protein details: His-MBP tag removed with TEV protease
[2] = system: AmvR (Acinetobacter baumannii); test: EMSA; conditions: 0.2 uM DNA, 50 mM MgCl2; EMSA: 100 mM HEPES-Na pH 8.0, 100 mM KCl, 50 mM MgCl2, 5% glycerol, 10 mM DTT, 10 mM EDTA, 0.1 mg/mL BSA, 30 min, room temperature; recombinant protein; protein details: His-MBP tag removed with TEV protease; label: 5'-FAM on strand 1
[3] = system: AmvR (Acinetobacter baumannii); test: DNase I footprinting; conditions: 18 uM AmvR, 10 mM MgCl2, 1 mM CaCl2, two protected palindromic regions (sequences in Fig. 2D only); footprinting: 10 mM HEPES-Na pH 8.0, 10 mM MgCl2, 1 mM CaCl2, 0.4 mM DTT, 100 mM KCl, 5% glycerol, room temperature (digestion 25 C); recombinant protein; protein details: His-MBP tag removed with TEV protease; label: 5'-FAM on strand 1

“AATCATTTCTCTGCGTTGATCGCGATTAAGATAGGCCATGTTTTTTTACCTGACTGAATTCGACACAAATTACATTAAAACTAAAAGTTGGACAAGTGTCCAGTTGTGTATATAATAACCATGATTTGAACACATGTCCAAGTTTTGGATATTGAAGAGCGTTATGCAAAAAAAATGGTTAATCCTGACAATTATCGTCCTCATTTATTTACCAGTTACGATTGATGCAACGGTAATGCATGTTGCAACACCATCTTTAAGTGCAGCATTGAATTTAACTGCCAATCAGCTTTTATGGATTATTGATATTTATTCACTGATTATGGCGGGTTTGATTTTGCCGATGGGTGCAC (double strand) [DNA 1 (unlabeled)]”: binds [1].

“AATCATTTCTCTGCGTTGATCGCGATTAAGATAGGCCATGTTTTTTTACCTGACTGAATTCGACACAAATTACATTAAAACTAAAAGTTGGACAAGTGTCCAGTTGTGTATATAATAACCATGATTTGAACACATGTCCAAGTTTTGGATATTGAAGAGCGTTATGCAAAAAAAATGGTTAATCCTGACAATTATCGTCCTCATTTATTTACCAGTTACGATTGATGCAACGGTAATGCATGTTGCAACACCATCTTTAAGTGCAGCATTGAATTTAACTGCCAATCAGCTTTTATGGATTATTGATATTTATTCACTGATTATGGCGGGTTTGATTTTGCCGATGGGTGCAC (double strand) [FAM_DNA 1 (amvR-amvA intergenic region)]”: binds [2]; binds [3].

For at least one entry, the source does not settle the construct or the ends of the probe.
